A mixed list of measured activities; the numbers were collected in NIAID ChemDB.

Common to all: whole-cell or culture tests; agent: HIV-1

Blank or dashed fields: not listed here. ECn: concentration that inhibits the pathogen or its effect by n%. Lines come from different laboratories, so protocols vary.

structure,cell line,measure,strain,read by,changes,result
Cc1cc(C)cc(C(=O)c2cccnc2Nc2ccc(S(C)(=O)=O)cc2)c1,MT-4,EC50,IIIB,MTT,-,>98.17 µM
O=CNc1ccc(S(=O)(=O)c2ccc(NC=O)cc2)cc1,CEM + CEM-SS,EC50,RF,cytopathic effect / XTT,-,>100 µg/mL
COc1cnc(-n2cnc(CO)n2)c2[nH]cc(C(=O)C(=O)N3CCc4c(cccc4-c4ccccn4)C3)c12,HeLa,EC50,-,luciferase,-,<0.1 µM
C[C@H](Cn1cnc2c(N)ncnc21)OCP(=O)(O)O,MT-4,EC50,-,cytopathic effect / MTT,-,2.2 µM
OC[C@@H]1[C@@H](O)[C@H](O)[C@@H]2[C@@H](O)CCN21,JM,EC50,GB8,syncytia,-,>1000 µM
Cc1cccc2ccn(-c3ccccc3[N+](=O)[O-])c12,C8166,EC50,IIIB,syncytia,-,37.76 µg/mL
Nc1nc2c(ncn2CCOCP(=O)(O)O)c(=O)[nH]1,MT-4,EC50,-,cytopathic effect / MTT,-,0.14 µM
COC(=O)[C@@H](Cc1c[nH]c2ccccc12)NC(=O)OC[C@H]1O[C@@H](n2cc(C)c(=O)[nH]c2=O)C[C@@H]1N=[N+]=[N-],PBMC,EC50,LAI,XTT,-,18 µM
COC(=O)N[C@H](C(=O)N[C@@H](Cc1ccccc1)[C@@H](O)CN(Cc1ccc(-c2ccccn2)cc1)NC(=O)[C@@H](NC(=O)OC)C(C)(C)C)C(C)(C)C,MT-4,EC50,NL4-3,p24 / luminescence,L10F M46I I54V V82A,0.0351 µM
CCCCCCCCCC(=O)O[C@@]12[C@H](OCC)[C@@H](C)[C@@]3(O)[C@@H](C=C(CO)C[C@]4(O)C(=O)C(C)=C[C@@H]34)[C@@H]1C2(C)C,MT-4,EC50,IIIB,cytopathic effect / MTT,-,0.1957 µg/mL
O=[N+]([O-])c1ccccc1-n1ccc2ccccc21,C8166,EC50,IIIB,syncytia,-,7.88 µg/mL
O=[N+]([O-])c1cccc(S(=O)(=O)c2cccc([N+](=O)[O-])c2)c1,CEM + CEM-SS,EC50,RF,XTT,-,>100 µg/mL
Cc1cn([C@H]2C[C@H](N=[N+]=[N-])[C@@H](CO)O2)c(=O)[nH]c1=O,PBMC,EC50,LAI,XTT,-,0.01 µM
O=NNc1ccc(S(=O)(=O)c2ccc(NN=O)cc2)cc1,CEM + CEM-SS,EC50,RF,XTT,-,>100 µg/mL
CC1=NO[C@@]2(CC[C@H](C)N3C[C@H]2n2cc(C(=O)NCc4ccc(F)cc4F)c(=O)c(OCOC(=O)N(C)c4ncccc4CN(CC(=O)O)C(=O)OCOP(=O)(O)O)c2C3=O)C1,MT-4,EC50,IIIB,luminescence,-,0.000917 µM
Cc1cn([C@H]2C[C@H](N=[N+]=[N-])[C@@H](CO)O2)c(=O)[nH]c1=O,ATH8,EC50,IIIB,cytopathic effect / trypan blue,-,<1 µM
Nc1ncnc2c1ncn2CCOCP(=O)(O)OP(=O)(O)OP(=O)(O)O,MT-4,EC50,-,cytopathic effect / MTT,-,>200 µM
Nc1nc2c(ncn2COCCO)c(=O)[nH]1,CEM,EC50,IIIB,syncytia,-,>250 µM
O=c1[nH]cnc2c1ncn2[C@H]1CC[C@@H](CO)O1,CEM,EC50,IIIB,syncytia,-,4.6 µM
Nc1ccn([C@H]2CC[C@@H](CO)O2)c(=O)n1,MT-4,EC50,IIIB,RT activity,-,0.45 µM
N[C@@H](Cc1ccc(O)cc1)C(=O)O.O=C(/C=C/c1ccc(O)c(O)c1)O[C@@H]1C[C@](O)(C(=O)O)C[C@@H](O)[C@H]1O,MT-2,EC50,IIIB,cytopathic effect / neutral red,-,0.5 µg/mL
Cc1cn([C@H]2C[C@H](N=[N+]=[N-])[C@@H](CO)O2)c(=O)[nH]c1=O,C8166,EC50,IIIB,syncytia,-,0.007 µg/mL
COc1ccc(S(=O)(=O)N(CC(C)C)C[C@@H](O)[C@H](Cc2ccccc2)NC(=O)O[C@H]2CO[C@@H]3O[C@H]4OCC[C@H]4[C@@H]32)cc1,MT-4,EC50,NL4-3,p24 / luminescence,L23I E43Q K43I M46I I50L G51A L63P A71V V82A T91A,0.3769 µM
Cn1c(=O)c(C(=O)NCCO)c(O)c2ncc(Cc3ccc(F)cc3)cc21,PBMC,EC50,BaL,RT activity,-,0.0019 µM
CC1=NO[C@@]2(CC[C@H](C)N3C[C@H]2n2cc(C(=O)NCc4ccc(F)cc4F)c(=O)c(OCOC(=O)OCCC(C)(C)c4c(CC(=O)O)cc(C)cc4OP(=O)(O)O)c2C3=O)C1,MT-4,EC50,IIIB,luminescence,-,0.001432 µM
CCCc1cc(=O)oc2c3c(c4c(c12)OC(C)(C)C=C4)O[C@H](C)C(C)(C)C3=O,CEM + CEM-SS,EC50,IIIB,cytopathic effect / MTT,-,>19.3 µM
C[C@H](CCC(=O)Nc1ccc(S(=O)(=O)c2ccc(NC(=O)CC[C@@H](C)[C@H]3CC[C@H]4[C@@H]5CC[C@H]6C[C@@H](O)CC[C@]6(C)[C@H]5CC(O)[C@]34C)cc2)cc1)[C@H]1CC[C@H]2[C@@H]3CC[C@H]4C[C@@H](O)CC[C@]4(C)[C@H]3CC(O)[C@]12C,CEM + CEM-SS,EC50,RF,XTT,-,>100 µg/mL
COc1ccc2c(c1)COP(=O)(OC[C@@H]1C=C[C@H](n3cnc4c(NC5CC5)nc(N)nc43)C1)O2,CEM,EC50,IIIB,syncytia,-,3.5 µM
CCCCCCCCCC(=O)O[C@@]12[C@H](OC(OC)OCC)[C@@H](C)[C@@]3(O)[C@@H](C=C(CO)C[C@]4(O)C(=O)C(C)=C[C@@H]34)[C@@H]1C2(C)C,MT-4,EC50,IIIB,cytopathic effect / MTT,-,0.00372 µg/mL
Nc1ccn([C@H]2C=C[C@@H](CO)O2)c(=O)n1,ATH8,EC50,IIIB,cytopathic effect / trypan blue,-,0.3 µM
CC(C)=CCC/C(C)=C/CC/C(C)=C/Cc1c(O)cc(C)c(C(=O)O)c1O,MT-4,EC50,-,-,-,>40 µM
Cc1cc(C)cc(C(=O)c2cccnc2Nc2ccc(O)cc2)c1,MT-4,EC50,IIIB,MTT,-,>6.44 µM
Nc1nc(N)c2ncn([C@@H]3C[C@H](CO)[C@H]3CO)c2n1,ATH8,EC50,IIIB,cytopathic effect / trypan blue,-,100 µM
Cc1cn([C@H]2C[C@H](N=[N+]=[N-])[C@@H](COC(=O)CCC(=O)OC[C@H]3O[C@@H]4O[C@H]5[C@H](O)[C@@H](O)[C@@H](O[C@H]6[C@H](O)[C@@H](O)[C@@H](O[C@H]7[C@H](O)[C@@H](O)[C@@H](O[C@H]8[C@H](O)[C@@H](O)[C@@H](O[C@H]9[C@H](O)[C@@H](O)[C@@H](O[C@H]3[C@H](O)[C@H]4O)O[C@@H]9CO)O[C@@H]8CO)O[C@@H]7CO)O[C@@H]6CO)O[C@@H]5CO)O2)c(=O)[nH]c1=O,MT-4,EC50,IIIB,cytopathic effect / MTT,-,0.005 µg/mL
Cc1cn([C@H]2C[C@H](N=[N+]=[N-])[C@@H](CO)O2)c(=O)[nH]c1=O,CEM,EC50,LAI,RT activity,-,0.0024 µM
Nc1nc2c(ncn2COCCOP2(=O)OCc3ccccc3O2)c(=O)[nH]1,CEM,EC50,IIIB,syncytia,-,22 µM
Cc1ccnc2c1NC(=O)c1cccnc1N2C1CC1,MT-4,EC95,-,-,RT-D67N K70R T215Y K219Q L100I,0.4 µM
CCCc1cc(=O)oc2c3c(c4c(c12)OC(C)(C)C=C4)O[C@@H](C)[C@H](C)[C@H]3O,MT-2,EC50,H112-2,cytopathic effect / MTT,-,>2.5 µM
CCCCCCCCCC(=O)O[C@@]12[C@H](OCOC)[C@@H](C)[C@@]3(O)[C@@H](C=C(COC)C[C@]4(O)C(=O)C(C)=C[C@@H]34)[C@@H]1C2(C)C,MT-4,EC50,IIIB,cytopathic effect / MTT,-,0.0469 µg/mL
Nc1ccn([C@H]2CC[C@@H](CO)O2)c(=O)n1,HELA/CD4 + HELA CD4+,EC50,HXB2,plaque count,Dideoxynucleoside-resistant (RT L74V),1.15 µM
CNC(=O)[C@H](Cc1ccccc1)NC(=O)OC[C@H]1O[C@@H](n2cc(C)c(=O)[nH]c2=O)C[C@@H]1N=[N+]=[N-],PBMC,EC50,LAI,XTT,-,3 µM
Nc1nc2c(ncn2[C@H]2CC[C@@H](CO)O2)c(=O)[nH]1,ATH8,EC50,IIIB,cytopathic effect / trypan blue,-,<10 µM
O[C@H]1[C@H](O)[C@@H](O)CN2CC[C@H](O)[C@H]12,JM,EC50,GB8,syncytia,-,<250 µM
O=[N+]([O-])c1ccc(S(=O)(=O)c2ccc([N+](=O)[O-])cc2C(F)(F)F)c(C(F)(F)F)c1,CEM + CEM-SS,EC50,RF,XTT,-,>100 µg/mL
O[C@H]1[C@H](O)[C@H](O)CN2CC[C@H](O)[C@H]12,JM,EC50,GB8,syncytia,-,~1000 µM
Cc1cn([C@H]2C=C[C@@H](CO)O2)c(=O)[nH]c1=O,ATH8,EC50,IIIB,cytopathic effect / trypan blue,-,4.1 µM
CC(C)=CCC/C(C)=C/CC/C(C)=C/Cc1c(O)cc(C)cc1O,MT-4,EC50,-,-,-,>38 µM
Cc1cc(C)cc(C(=Nc2ccc(C(N)=O)cc2)c2cccnc2Cl)c1,MT-4,EC50,IIIB,MTT,-,10.94 µM
Cc1ccc2c(c1)COP(=O)(OCCOCn1cnc3c(=O)[nH]c(N)nc31)O2,CEM,EC50,IIIB,syncytia,-,17 µM
c1cc(CN2CCNCCNCCNCC2)cc(CN2CCNCCNCCNCC2)c1,MOLT-4,EC50,SF-2H,syncytia,-,0.15 µM
O=c1[nH]cnc2c1ncn2[C@H]1CC[C@@H](CO)O1,HT4 + HT4 LacZ-1,EC50,HXB2,plaque count,RT-L74V,11.2 µM
CC(C)[C@H](NC(=O)c1ccc2ccccc2n1)C(=O)N[C@@H](Cc1ccccc1)[C@H](O)CN1CC[C@@H](OCc2ccncc2)C[C@H]1C(=O)NC(C)(C)C,H9,EC50,HXB2,p24 / ELISA / antigen,-,0.001 µM
O=S(=O)(c1ccc(Cl)c(Cl)c1)c1ccc(Cl)c(Cl)c1,CEM + CEM-SS,EC50,RF,XTT,-,>100 µg/mL
O=C(N[C@H]1c2ccccc2C[C@H]1O)[C@H](Cc1ccccc1)C[C@H](O)CN1C(=O)[C@@H](Cc2cccc(O)c2)C[C@@H]1Cc1ccccc1,MT-4 + MT4,EC50,-,-,-,0.2 µM
Cc1cc(C)cc(C(=O)c2cccnc2Nc2ccncc2)c1,MT-4,EC50,IIIB,MTT,-,>32.34 µM
OC[C@@H]1[C@@H](O)[C@H](O)[C@@H](O)CN1CCCc1ccccc1,MOLT-4,EC50,IIIB,cell fusion,-,<5 µg/mL
NC(N)=NC(N)=Nc1cccc(S(=O)(=O)c2cccc(N=C(N)N=C(N)N)c2)c1,CEM + CEM-SS,EC50,RF,XTT,-,>100 µg/mL
Cc1cn([C@@H]2C[C@H](CO)[C@H]2CO)c(=O)[nH]c1=O,ATH8,EC50,IIIB,cytopathic effect / trypan blue,-,>500 µM
Nc1nc2c(ncn2[C@H]2C=C[C@@H](CO)C2)c(=O)[nH]1,CEM,EC50,IIIB,syncytia,-,0.15 µM
O=C=Nc1cc(S(=O)(=O)c2ccc(Cl)c(N=C=O)c2)ccc1Cl,CEM + CEM-SS,EC50,RF,XTT,-,>100 µg/mL
Nc1nc2c(ncn2CCOCP(=O)(O)OP(=O)(O)OP(=O)(O)O)c(=O)[nH]1,MT-4,EC50,-,cytopathic effect / MTT,-,>200 µM
Cc1cn([C@H]2C[C@H](N=[N+]=[N-])[C@@H](COC(=O)CCC(=O)OC[C@H]3O[C@@H]4O[C@H]5[C@H](O)[C@@H](O)[C@@H](O[C@H]6[C@H](O)[C@@H](O)[C@@H](O[C@H]7[C@H](O)[C@@H](O)[C@@H](O[C@H]8[C@H](O)[C@@H](O)[C@@H](O[C@H]9[C@H](O)[C@@H](O)[C@@H](O[C@H]%10[C@H](O)[C@@H](O)[C@@H](O[C@H]3[C@H](O)[C@H]4O)O[C@@H]%10CO)O[C@@H]9CO)O[C@@H]8CO)O[C@@H]7CO)O[C@@H]6CO)O[C@@H]5CO)O2)c(=O)[nH]c1=O,MT-4,EC50,IIIB,cytopathic effect / MTT,-,0.0452 µg/mL
Cc1cc(C)cc(C(=O)c2cccnc2Oc2ccc(N)cc2)c1,MT-4,EC50,IIIB,MTT,-,>123 µM
Nc1ccn([C@@H]2CO[C@H](CO)S2)c(=O)n1,MT-2,EC50,HXB2D,RT activity,-,3 µM
Nc1ccn([C@H]2CC[C@@H](CO)O2)c(=O)n1,MT-2,EC50,A-17 (TIBO-RS),cytopathic effect / MTT,-,~0.07 µM
CC(C)OC(=O)OCOP(=O)(CO[C@H](C)Cn1cnc2c(N)ncnc21)OCOC(=O)OC(C)C,TZM-gfp,EC50,NL4-3,GFP,A114S,0.04 µM
Cc1cn([C@H]2C[C@H](F)[C@@H](CO)O2)c(=O)[nH]c1=O,MT-4,EC50,IIIB,cytopathic effect / trypan blue,-,0.001 µM
Nc1nccc2c1ncn2[C@@H]1C[C@H](CO)[C@@H](O)[C@H]1O,PBMC,EC50,A012 PRE-AZT,-,-,0.141 µM
Cc1cc(C)cc(C(=O)c2cccnc2Oc2ccc(C(=O)O)cc2)c1,MT-4,EC50,IIIB,MTT,-,>150 µM
C[C@H](Cn1cnc2c(N)ncnc21)OCP(=O)(O)OP(=O)(O)OP(=O)(O)O,MT-4,EC50,-,cytopathic effect / MTT,-,>200 µM
C=C1[C@H](CO)[C@@H](O)C[C@@H]1n1cnc2c(=O)[nH]c(N)nc21,MT-4,EC50,IIIB,MTT,-,0.0022 µM

6 of the rows above, restated:

structure,cell line,measure,strain,read by,changes,result
Nc1ccn([C@H]2CC[C@@H](CO)O2)c(=O)n1,MT-4,EC50,IIIB,RT activity,-,0.45 µM
C=C1[C@H](CO)[C@@H](O)C[C@@H]1n1cnc2c(=O)[nH]c(N)nc21,MT-4,EC50,IIIB,MTT,-,0.0022 µM
C[C@H](Cn1cnc2c(N)ncnc21)OCP(=O)(O)OP(=O)(O)OP(=O)(O)O,MT-4,EC50,-,cytopathic effect / MTT,-,>200 µM
O=c1[nH]cnc2c1ncn2[C@H]1CC[C@@H](CO)O1,HT4 + HT4 LacZ-1,EC50,HXB2,plaque count,RT-L74V,11.2 µM
O=C=Nc1cc(S(=O)(=O)c2ccc(Cl)c(N=C=O)c2)ccc1Cl,CEM + CEM-SS,EC50,RF,XTT,-,>100 µg/mL
Nc1nc2c(ncn2[C@H]2CC[C@@H](CO)O2)c(=O)[nH]1,ATH8,EC50,IIIB,cytopathic effect / trypan blue,-,<10 µM